We go through one molecule from USRE42152E1, “Aromatic-linked polyamine macrocyclic compounds with anti-HIV activity” (Genzyme Corporation, priority 1992, dated 2011).

In this assay the test system is HIV uncoating (or fusion). The assay can be described thus: Sensitivity of viral RNA from freshly infected MT4 cells to RNase degradation (uncoating). The class given is cell-based. The note with it: radiolabelled viral particles, RNA harvested 4 hours after infection. An excerpt: It was reasoned that if tincoating (fusion) was hampered, the viral capsid (or envelope) proteins would remain associated with the viral RNA genome and thus the RNA should be protected against RNase attack.

With `Cc1cn([C@H]2C[C@H](N=[N+]=[N-])[C@@H](CO)O2)c(=O)[nH]c1=O` [AZT, reference compound], the “resistance of viral RNA to degradation by RNase” value is reported as “did not show this increased resistance”.
